A mixed list of measured activities; the numbers were collected in NIAID ChemDB.

Shared fields: tests in culture; organism: Mycobacterium tuberculosis

ECn: concentration that inhibits the pathogen or its effect by n%. Percent inhibition refers to the dose given; in toxicity tests it is the harm to the cells. A number after MIC or MFC names an inhibition level or a share of isolates. An empty or dashed field is not shown. MIC bound comes from a single tested concentration. Rows are shuffled and stem from different studies.

smiles,dose,strain or isolate,conditions,read by,changes,endpoint,value
Cc1cc2nc3c(nc2cc1C)C1CC(Br)CCC1N3,12.5 µg/mL,H37Rv,-,BACTEC,-,inhibition,7%
NC(=O)c1cnccn1,-,H6777 niacin-negative,-,-,-,MIC,32 µg/mL
Nc1nnc2nc(CC(=O)c3ccc4ccccc4c3)c(=O)[nH]n12,-,H37Rv,-,BACTEC,-,MIC bound,>12.5 µg/mL
C[C@H]1COc2c(N3C[C@@H](N)C(C)(C)C3)c(F)cc3c(=O)c(C(=O)O)cn1c23,-,Rifampicin-resistant (5 strains pooled),-,-,-,Mean MIC,3.1 µg/mL
NC(=S)Nc1ccc(C(=O)O)cc1,-,A67,-,-,-,MIC,250 µM
Cc1ccc(C(=O)/C=C/c2ccccc2)cc1,-,H37Rv,21 d,MTT,-,MIC,32 µg/mL
O=C1OC(CO)C(O)C2OC23C(=O)c2c(c(O)c(O)c(O)c2-c2c(O)c(O)c(O)c4c2C(=O)OC3C4O)-c2c1cc(O)c(O)c2O,12.5 µg/mL,H37Rv,-,BACTEC,-,inhibition,25%
O=c1[nH]c(=O)n(-c2ccc([N+](=O)[O-])cc2[N+](=O)[O-])cc1Cl,6.25 µg/mL,-,-,-,-,inhibition,<90%
CC1(C)S[C@@H]2[C@H](NC(=O)[C@H](N)c3ccc(O)cc3)C(=O)N2[C@H]1C(=O)O,-,27 strains,-,-,-,MIC50,>32 µg/mL
C[C@H]1COc2c(N3C[C@@H](N)C4(CCC4)C3)c(F)cc3c(=O)c(C(=O)O)cn1c23,-,Rifampicin-sensitive (7 strains pooled),-,-,-,Mean MIC,0.6 µg/mL
Cc1cn(-c2ccc([N+](=O)[O-])cc2[N+](=O)[O-])c(=O)[nH]c1=O,6.25 µg/mL,-,-,-,-,inhibition,<90%
NC(=O)NNC(=O)CCn1[nH]c(=O)c(Cl)c(Cl)c1=O,-,H37Rv,-,BACTEC,-,MIC bound,>12.5 µg/mL
NC(=S)Nc1ccccc1N,-,A67,-,-,-,MIC,7.81 µM
C/C(=N/n1cc(-c2ccccc2)nc1N)c1ccccc1,12.5 µg/mL,H37Rv,-,BACTEC,-,inhibition,0%
N#Cc1cn(-c2ccc([N+](=O)[O-])cc2[N+](=O)[O-])c(=O)[nH]c1=O,6.25 µg/mL,-,-,-,-,inhibition,<90%
COC(=O)C(C)N1OCC(N)C1=O,-,-,-,-,-,MIC,>2500 µM
O=C(Nc1cccc(F)c1)c1ccc2cc(O)ccc2c1,-,H37Ra ATCC 25177,-,broth dilution / visual reading,-,MIC,107 µM
O=C(CSc1nnc(-c2ccc([N+](=O)[O-])s2)s1)OCc1ccccc1,-,H37Rv,-,resazurin,-,MIC,0.78 µg/mL
O=C(Nc1sc(-c2ccc(OCc3ccccc3Cl)cc2)cc1C(=O)O)c1ccc(Cl)cc1,-,H37Rv,-,resazurin,-,MIC,31.7 µM
Cc1ccc(NC(=O)c2ccc3cc(O)ccc3c2)cc1,-,H37Ra ATCC 25177,-,broth dilution / visual reading,-,MIC,27 µM
Cn1c(=O)c(C(=O)NC(=O)NCCCCCOC(=O)CCCCCCCCCCC(=O)OCCCCCNC(=O)NC(=O)c2cn(Cc3ccccc3)c(=O)n(C)c2=O)cn(Cc2ccccc2)c1=O,12.5 µg/mL,H37Rv,-,BACTEC,-,inhibition,21%
COc1c(N2CCNC(C)C2)c(F)cc2c(=O)c(C(=O)O)cn(C3CC3)c12,-,Rifampicin-resistant (5 strains pooled),-,-,-,Mean MIC,1.1 µg/mL
N/C(=N\N=C/c1cn(Cc2ccccc2)c2ccccc12)c1ccc2ccccc2n1,-,H37RV (INH RMP OFL-S),-,-,-,MIC,16 µg/mL
NC1CON(CC(=O)O)C1=O,-,-,-,-,-,MIC,>2500 µM
C[C@H]1COc2c(N3CCN(C)CC3)c(F)cc3c(=O)c(C(=O)O)cn1c23,-,Clinical isolate 109,-,resazurin,INH RIF resistant,MIC,0.25 µg/mL
COc1ccc(C(=O)Nc2sc(-c3ccc(OCc4c(Cl)cccc4Cl)cc3)cc2C(=O)O)cc1,-,H37Rv,-,resazurin,-,EC50,>128 µM
CC(C)=C[C@@H]1C[C@H](C)[C@H]2CC[C@H](C)c3c2c1c(C)c1ncoc31,12.5 µg/mL,-,-,-,-,inhibition,97%
O=C1CCC2CCC(=O)N12,-,H37Rv,-,BACTEC,-,MIC bound,>12.8 µg/mL
Cc1cc2oc(=O)cc(-c3ccccc3)c2c(C)c1-c1cccc(C(F)(F)F)c1,-,H37Rv,-,turbidity,FadD32,EC90,>64 µM
CN(C)C/C=C(/c1ccc(Br)cc1)c1ccc(-c2ccc(Br)cc2)cc1,-,H37Ra,-,-,-,MIC,4 µg/mL
Cc1ccc(S(=O)(=O)OCC2OC(c3ccccc3)OC3C(CO)OC(c4ccccc4)OC23)cc1,12.5 µg/mL,H37Rv,-,BACTEC,-,inhibition,-3%
O=C(O)c1cc(-c2ccc(OCc3c(Cl)cccc3Cl)cc2)sc1NCc1ccc(Cl)cc1,-,H37Rv,-,resazurin,-,MIC,30.3 µM
Cc1c2cnccc2c(C)c2c1c1ccccc1n2CC1CO1,-,H37Rv,-,resazurin,-,MIC bound,<6.25 µg/mL
O=c1[nH]c(=O)n(-c2ccc([N+](=O)[O-])cc2)cc1[N+](=O)[O-],6.25 µg/mL,-,-,-,-,inhibition,<90%
Cc1cccc(C(N)=Nc2nc(-c3ccccn3)cc3ccccc23)c1,-,J-2912,-,-,-,MIC,0.5 µg/mL
NC1CON(CCF)C1=O,-,-,-,-,-,MIC,>2500 µM
CCOC(=O)CC1(C)C(=O)OC(c2ccccc2)N1C(=O)c1ccccc1,-,H37Rv,-,BACTEC,-,MIC bound,>12.5 µg/mL
Cc1c(N2C[C@@H](N)C3(CC3)C2)c(F)cc2c(=O)c(C(=O)O)cn([C@@H]3C[C@@H]3F)c12,-,51 (RFP-resistant),-,-,-,MIC,0.2 µg/mL
O=C(/C=C/c1c(F)cccc1Cl)c1ccc(F)cc1,-,H37Rv,21 d,MTT,-,MIC,64 µg/mL
O=C(Nc1sc(-c2ccc(OCc3c(Cl)cccc3Cl)cc2)cc1C(=O)O)c1ccco1,-,H37Rv,-,resazurin,-,EC50,91.73 µM
CCCCCOc1ccc(C(=O)O)cc1,-,H37Rv,-,-,-,MIC,7 µM
O=C(/C=C/c1ccccc1)c1ccc(F)cc1,-,H37Rv,21 d,MTT,-,MIC,32 µg/mL
Cc1ccc(-c2c(C)cc3oc(=O)cc(C)c3c2C)cc1,-,H37Rv,-,turbidity,FadD32,EC90,>250 µM
Cc1cc(C)c(Cn2cc(/C=N\N=C(/N)c3ccccn3)c3ccccc32)c(C)c1,-,H37RV (INH RMP OFL-S),-,-,-,MIC,128 µg/mL
COc1ccccc1NC(N)=S,-,A67,-,-,-,MIC,250 µM
COc1cc(N=C2C=CC(=O)C=C2)c2ncccc2c1,12.5 µg/mL,H37Rv,-,BACTEC,-,inhibition,29%
O=C(Nc1sc(-c2ccc(OCc3c(Cl)cccc3Cl)cc2)cc1C(=O)O)c1ccccn1,-,H37Rv,-,resazurin,-,MIC,59.2 µM
O=C(/C=C/c1ccc(F)cc1Cl)c1ccc(F)cc1,-,H37Rv,14 d,resazurin,-,MIC,32 µg/mL
CN(O)C(=O)CN1OCC(N)C1=O,-,-,-,-,-,MIC,>2500 µM
O=C(O)c1cc(-c2ccc(OCc3c(Cl)cccc3Cl)cc2)sc1NCc1ccccc1,-,H37Rv,-,resazurin,-,EC50,58.2 µM
COc1cccc(/C=C/C(=O)c2ccc(F)cc2)c1F,-,H37Rv,21 d,resazurin,-,MIC,32 µg/mL
C/C(=N\NC(=S)NNC(=S)N(C)c1ccccc1)c1ccccn1,-,H37Rv,-,BACTEC,-,MIC bound,>12.5 µg/mL
N/C(=N\N=C/c1cn(Cc2cccc(Br)c2)c2ccccc12)c1ccc2ccccc2n1,-,H37RV (INH RMP OFL-S),-,-,-,MIC,64 µg/mL
CCCCNc1sc(-c2ccc(OCc3c(Cl)cccc3Cl)cc2)cc1C(=O)O,-,H37Rv,-,resazurin,-,EC50,35.56 µM
CC(=O)OC1COC([n+]2cccc(C(N)=O)c2)C(OC(C)=O)C1OC(C)=O.[Br-],-,H37Rv,-,BACTEC,-,MIC,≥12.5 µg/mL
CCC1CN(c2c(F)cc3c(=O)c(C(=O)O)cn(C4CC4)c3c2OC)CCN1,-,68 (RFP-susceptible),-,-,-,MIC,0.25 µg/mL
Cn1c(=O)ccn(-c2ccc([N+](=O)[O-])cc2)c1=O,6.25 µg/mL,-,-,-,-,inhibition,<90%
O=C(/C=C/c1ccc(F)cc1)c1ccc(O)cc1,-,H37Rv,14 d,resazurin,-,MIC,32 µg/mL
CC(=O)NC[C@H]1CN(c2ccc(-c3ccc(CNCc4cn[nH]n4)cc3)c(F)c2)C(=O)O1,-,-,-,low oxygen,-,EC90,0.31 µg/mL
NC(=O)c1cnccn1,-,H5009,-,-,-,MIC,30 µg/mL
NNC(=O)c1ccncc1,-,10 strains (isoniazid- rifampin-susceptible),-,-,-,MIC,0.125 µg/mL
NC(=S)Nc1ccccc1O,-,A67,-,-,-,MIC,31.25 µM
CCN(CC)CCNc1cccc2sc3ccccc3c(=O)c12,-,H37Rv,-,BACTEC,-,MIC bound,≤12.5 µg/mL
N/C(=N\N=C/c1c[nH]c2ccccc12)c1ccccn1,-,H37RV (INH RMP OFL-S),-,-,-,MIC,64 µg/mL
CN(C)CCCCc1cn(-c2ccccc2)c2ccccc12,6.25 µg/mL,-,-,resazurin,-,inhibition,46%
NC(=S)N/N=C/c1ccccc1O,-,A67,-,-,-,MIC,250 µM
C[C@H]1COc2c(N3CC[C@H](N)C3)c(F)cc3c(=O)c(C(=O)O)cn1c23,-,Rifampicin-sensitive (7 strains pooled),-,-,-,Mean MIC,3.5 µg/mL
NC1CON(CCO)C1=O,-,-,-,-,-,MIC,>2500 µM
O=C(O)c1cc(-c2ccc(OCc3c(Cl)cccc3Cl)cc2)sc1NCc1ccccc1Cl,-,H37Rv,-,resazurin,-,MIC,60 µM
NC(=S)Nc1cccc(C(=O)O)c1,-,A67,-,-,-,MIC,250 µM
CCn1c2ccccc2c2cc(NC(=O)NC(=O)c3ccccc3)ccc21,-,H37Rv,-,BACTEC,-,MIC bound,>12.5 µg/mL
NC1CON(CCCO)C1=O,-,-,-,-,-,MIC,>2500 µM
CCCCOc1ccc(C(=O)O)cc1,-,H37Rv,-,-,-,MIC,7 µM
NCC[C@H](O)C(=O)N[C@@H]1C[C@H](N)[C@@H](O[C@H]2O[C@H](CN)[C@@H](O)[C@H](O)[C@H]2O)[C@H](O)[C@H]1O[C@H]1O[C@H](CO)[C@@H](O)[C@H](N)[C@H]1O,-,TN3187 (W1),-,-,-,MIC,>256 µg/mL
Cc1cc2oc(=O)cc(-c3ccccc3)c2c(C)c1-c1ccc(C)c2ccccc12,-,H37Rv,-,turbidity,FadD32,EC90,>64 µM
COC(=O)CSc1nnc(-c2ccc([N+](=O)[O-])s2)s1,6.25 µg/mL,H37Rv,-,resazurin,-,inhibition,100%
OC12CCCCC1Oc1ccc3ccccc3c12,-,H37Rv,-,BACTEC,-,MIC bound,>12.5 µg/mL
N/C(=N\N=C/c1cn(Cc2ccccc2Cl)c2ccccc12)c1ccc2ccccc2n1,-,H37RV (INH RMP OFL-S),-,-,-,MIC,>128 µg/mL
CCc1nc(NCCCc2ccccc2)c2cc(C)sc2n1,-,Erdman,-,resazurin,-,EC50,0.14 µM
CCCNc1sc(-c2ccc(OCc3c(Cl)cccc3Cl)cc2)cc1C(=O)O,-,H37Rv,-,resazurin,-,EC50,21.31 µM
Cc1ccc2c(c1)C1(SC(C)C(=O)N1c1ccc(Cl)cc1)C(=O)N2CN1CCOCC1,12.8 µg/mL,H37Rv,-,BACTEC,-,inhibition,-4%
CC(O)Cn1cc([N+](=O)[O-])c(=O)[nH]c1=O,6.25 µg/mL,-,-,-,-,inhibition,<90%
COc1cc(C2c3[nH]c4ccccc4c3C[C@H]3COC(=O)N23)cc(OC)c1O,-,H37Rv,-,resazurin,-,MIC bound,>6.25 µg/mL
O=C(/C=C/c1ccc(F)cc1Cl)c1ccccc1,-,H37Rv,21 d,MTT,-,MIC,32 µg/mL
CCOc1ccc(C(=O)O)cc1,-,H37Rv,-,-,-,MIC,500 µM
NC(=S)Nc1ccccc1C(=O)O,-,A67,-,-,-,MIC,500 µM
N/C(=N\N=C/c1cn(Cc2ccc(Cl)cc2Cl)c2ccccc12)c1ccccn1,-,H37RV (INH RMP OFL-S),-,-,-,MIC,>128 µg/mL
Cc1cnc(/C=N/NC(N)=S)cn1,-,H37Rv,-,-,-,MIC,12.5 µg/mL
O=C(O)c1ccc(OCc2ccccc2)cc1,-,H37Rv,-,-,-,MIC,15 µM

For reference, 6 entries again:

smiles | dose | strain or isolate | conditions | read by | changes | endpoint | value
Cc1cc(C)c(Cn2cc(/C=N\N=C(/N)c3ccccn3)c3ccccc32)c(C)c1 | - | H37RV (INH RMP OFL-S) | - | - | - | MIC | 128 µg/mL
O=C1OC(CO)C(O)C2OC23C(=O)c2c(c(O)c(O)c(O)c2-c2c(O)c(O)c(O)c4c2C(=O)OC3C4O)-c2c1cc(O)c(O)c2O | 12.5 µg/mL | H37Rv | - | BACTEC | - | inhibition | 25%
O=C(O)c1cc(-c2ccc(OCc3c(Cl)cccc3Cl)cc2)sc1NCc1ccc(Cl)cc1 | - | H37Rv | - | resazurin | - | MIC | 30.3 µM
Cc1cc2nc3c(nc2cc1C)C1CC(Br)CCC1N3 | 12.5 µg/mL | H37Rv | - | BACTEC | - | inhibition | 7%
Cn1c(=O)ccn(-c2ccc([N+](=O)[O-])cc2)c1=O | 6.25 µg/mL | - | - | - | - | inhibition | <90%
Cc1cc2oc(=O)cc(-c3ccccc3)c2c(C)c1-c1ccc(C)c2ccccc12 | - | H37Rv | - | turbidity | FadD32 | EC90 | >64 µM